PSTVd loop 6 mutant pool in Nicotiana benthamiana

Values reported by Wu et al. 2024 (doi:10.1371/journal.ppat.1012142).

The pool varies loop 6 of the PSTVd intermediate strain in the pattern UNNNCGNNNG; wild type is UGACCGCGAG (upper and lower strand joined, each 5' to 3', the first 5 letters being the upper strand, closing pairs included).

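Three N. benthamiana plants were inoculated with the whole mutant pool. Samples came from the inoculated region at 5 days, the leaf margin at 10 and upper systemic leaves at 12.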

Values are reads per thousand in the sample; higher means more abundant, 0 means not found. Each value is the mean of three plants. "Pool" is the share in the plasmid pool used as inoculum, on the same scale. The inoculated region was read from the minus strand, the other sites from the plus strand. Sequences that differ at fixed positions probably stem from PCR or sequencing errors, and defective variants can be carried along by functional ones. For reference, wild type rose from 20.7 per thousand in the pool to 195, 198, 203 (inoculated region), 629, 591, 734 (leaf margin) and 942, 870, 868 (systemic leaves). With 36,220-57,551 reads a sample, very low values are single reads.

sequence,pool,inoculated region,leaf margin,systemic leaves
UAAACUGCGG,0.0131,0,0,0
UGCCCGGACG,0.157,0.119,0.00773,0
UAGCCGGAAG,0.183,0.0994,0.0247,0
UGUACGUGGG,0.131,0.0829,0.00920,0
UUACCGGUUG,0.222,0.108,0.0232,0
UUUCCGAAUG,0.405,0.120,0.0309,0
UGAUCGCUUG,0.549,0.0844,0,0
UCUGCGCCGG,0.261,0.0644,0.00773,0
UCCACGUUUG,0.431,0.0831,0,0
UUCACGCACG,0.314,0.702,0.0990,0
UGGGCACUCA,0.0131,0,0,0
UCUACGUAAG,0.157,0.0772,0.00920,0
UCAGCGCCGG,0.209,0.0777,0,0
UCAACGGGCG,0.118,0.700,0.124,0.100
UAGCCCUAGG,0.0131,0,0,0
UCCCCGUCCG,0.301,0.108,0,0
UCGACGAUGG,0.209,0.0949,0,0
UCGACGUUAG,0.405,0.141,0.00920,0
UGUGCGACGG,0.222,0.113,0.00920,0
UCCUCGGCCG,0.170,0.0657,0.00920,0
UAUCCGUUAG,0.366,0.101,0.0155,0
UGGUCGAGUG,0.261,0.0960,0.00773,0
UACCCGACAG,0.248,0.130,0,0
UUCCCGUAAG,0.0784,0.0775,0.00773,0
UAGCCGGUCG,0.209,0.120,0.0706,0.00684
UAAACGCAUG,0.170,0.542,0.141,0.0473
UCUACGUCGG,0.157,0.0891,0.0276,0
UAAGCGUUCG,0.288,0.0592,0.00773,0
UCUUCGCUCG,0.183,0.101,0.00773,0
UUUACGUCGG,0.222,0.0901,0,0
UUGGCGCCGG,0.301,0.0717,0.00773,0
UUUACGCUUG,0.196,0.0894,0.00773,0
UUGGCGCAGG,0.209,0.125,0.0169,0
UCCCCGUGUG,0.288,0.0956,0.0176,0
UUAACGGCAG,0.340,0.781,0.185,0.0788
UACGCGUUAG,0.275,0.113,0,0
UAUUCGCAAG,0.170,0.0907,0.00773,0
UGGUCGUCUG,0.366,0.0839,0,0
UAAUCGGAUG,0.235,0.0708,0.0169,0
UGUUCGUUUG,0.497,0.0775,0,0
UUUGCGCGGG,0.170,0.106,0.00773,0
UAAACGGGGG,0.0915,0.601,0.0607,0
UCUACGUGGG,0.157,0.0887,0.0169,0
UGGGCGGUAG,0.209,0.0775,0.0169,0
UAUGCGGCAG,0.131,0.0595,0,0
UCAUCGCCCG,0.288,0.0720,0.00920,0
UGCACGGAGG,0.235,0.0532,0,0
UCGGCGCACG,0.327,0.0775,0,0
UAGCCGCCUG,0.366,0.258,0.756,0
UGGCCGGUCG,0.327,0.168,0.0261,0
UGCGCGUGGG,0.196,0.0717,0,0
UACACGAUCG,0.248,0.106,0,0
UUGCCGGUGG,0.209,0.106,0.00841,0.0120
UGUCCGGCUG,0.209,0.102,0.00773,0
UUCGCGCGAU,0.0131,0.0785,0,0
UGAGCGUAGU,0.0131,0,0,0
UGUGCGAUCG,0.327,0.0771,0,0
UAGCCGGUAG,0.235,0.0909,0.0184,0
UUGACGGGGG,0.196,0.0706,0.0155,0
UGAUCGGGUG,0.261,0.626,0.0592,0
UACGCGCAGG,0.105,0.0297,0,0
UUUACGGAGG,0.157,0.114,0,0
UAAUCGUUAG,0.405,0.102,0,0
UGUGCGCUUG,0.366,0.0836,0.0276,0
UACGCGUCGG,0.170,0.101,0,0
UAAACGUCCG,0.157,0.639,0.0754,0
UUGCCGUUUG,0.405,0.143,0.0261,0
UAAACGGAGG,0.118,0.619,0.0606,0
UGAUCGGUAG,0.275,0.670,0.0706,0
UAAGCGUAGG,0.301,0.0654,0.00920,0.00673
UGUGCGCCAG,0.131,0.0827,0.00773,0
UACUCGACGG,0.235,0.0834,0.00773,0
UGUCCGAAUG,0.340,0.0832,0.0155,0

7 of these entries, quoted again:

{"sequence": "UCCUCGGCCG", "pool": "0.170", "inoculated region": 0.0657, "leaf margin": 0.00920, "systemic leaves": 0}
{"sequence": "UGCCCGGACG", "pool": "0.157", "inoculated region": 0.119, "leaf margin": 0.00773, "systemic leaves": 0}
{"sequence": "UGUCCGAAUG", "pool": "0.340", "inoculated region": 0.0832, "leaf margin": 0.0155, "systemic leaves": 0}
{"sequence": "UUCACGCACG", "pool": "0.314", "inoculated region": 0.702, "leaf margin": 0.0990, "systemic leaves": 0}
{"sequence": "UUGCCGUUUG", "pool": "0.405", "inoculated region": 0.143, "leaf margin": 0.0261, "systemic leaves": 0}
{"sequence": "UCCCCGUGUG", "pool": "0.288", "inoculated region": 0.0956, "leaf margin": 0.0176, "systemic leaves": 0}
{"sequence": "UAUGCGGCAG", "pool": "0.131", "inoculated region": 0.0595, "leaf margin": 0, "systemic leaves": 0}